Anti-infective test results gathered from many reports (values: NIAID ChemDB through PubChem).

Common to all: whole-cell or culture tests

ECn is the concentration giving n% inhibition of infection, replication or growth. Lines come from different laboratories, so protocols vary. Fold resistance: result on the changed form divided by that on wild type. Zone: diameter of growth inhibition. Inhibition is in % at the dose shown (toxicity tests: loss of growth or viability). a–b is a range or a potency band. A number after MIC or MFC names an inhibition level or a share of isolates.

{"smiles": "O=C(NNC(=O)Nc1cc(C(F)(F)F)cc(C(F)(F)F)c1)Nc1cc(C(F)(F)F)cc(C(F)(F)F)c1", "agent": "Escherichia coli", "strain or isolate": "ES142", "measure": "MIC", "result": ">300 µM"}
{"smiles": "Oc1ccccc1N=Cc1ccc(O)c(O)c1O", "agent": "Cryptococcus neoformans", "strain or isolate": "ATCC 24067", "measure": "MIC99", "result": "11.3 µg/mL"}
{"smiles": "O=C(NNC(=O)Nc1cc(C(F)(F)F)cc(C(F)(F)F)c1)Nc1ccccc1", "agent": "Klebsiella pneumoniae", "strain or isolate": "KL21", "measure": "MIC", "result": ">200 µM"}
{"smiles": "Cc1ccc2c(c1)C(C=NNC(=O)N1c3ccccc3C=Cc3ccccc31)C(c1ccccc1)=N2", "agent": "Aspergillus terreus", "strain or isolate": "MTCC-1782", "method": "agar diffusion", "measure": "zone", "dose": "750 µg/mL", "result": "8 mm"}
{"smiles": "Cc1ccc(C)n1-c1ccc(C(=O)O)c(O)c1", "agent": "HIV-1", "strain or isolate": "SF2 X4R5 CLADE B", "cells": "MT-2", "method": "p24", "measure": "EC90", "result": "5.92 µM"}
{"smiles": "Cn1cc(C(=O)NCc2ccc(Cl)cc2)c(=O)c2cc(CN3CCOCC3)ccc21", "agent": "Rhesus cytomegalovirus", "cells": "HFF", "method": "plaque count", "measure": "EC50", "result": "1 µM"}
{"smiles": "NC(=NC1CCCC1)c1ccc(-c2ccc(-c3ccc(C(N)=NC4CCCC4)cc3)o2)cc1", "agent": "Candida albicans", "strain or isolate": "21 strains", "measure": "Geometric mean MFC", "result": "35.35 µg/mL"}
{"smiles": "Cc1cc(-c2noc(C(F)(F)F)n2)cc(C)c1OCCCc1ccc(C(C)(F)F)nn1", "agent": "Enterovirus", "cells": "HeLa", "method": "cytopathic effect", "measure": "EC50", "result": "0.033–0.659 µg/mL"}
{"smiles": "O=C1Nc2ccc(Cl)cc2[C@@](/C=C/C2CC2)(C(F)(F)F)N1", "agent": "HIV-1", "changes": "RT-K103N P225H", "measure": "EC90", "result": "~0.15 µM"}
{"smiles": "Cc1ccc2c(c1)C(C1SCC(=O)N1NC(=O)N1c3ccccc3C=Cc3ccccc31)C(c1ccccc1)=N2", "agent": "Aspergillus terreus", "strain or isolate": "MTCC-1782", "method": "agar diffusion", "measure": "zone", "dose": "500 µg/mL", "result": "11 mm"}
{"smiles": "CCc1ccc(C(=O)N(C)C(=O)c2ccccc2O)cc1", "agent": "Toxoplasma gondii", "cells": "Human foreskin fibroblasts", "measure": "MIC50", "result": ">1 µM"}
{"smiles": "CCCCCCCCOC(=O)[C@]1(O)C[C@@H](O)[C@@H](O)[C@H](OC(=O)/C=C/c2ccc(O)c(O)c2)C1", "agent": "Aspergillus westerdijkiae", "strain or isolate": "CBS 112803", "method": "absorbance", "measure": "MIC80", "result": "2100 µM"}
{"smiles": "CCC(CC)[C@H](NC(C)=O)[C@@H]1[C@H](O)[C@@H](C(=O)O)C[C@H]1N=C(N)N", "agent": "Influenza A virus", "strain or isolate": "Influenza A/Beijing/32/92 (H3N2)", "cells": "MDCK", "measure": "EC50", "result": "0.07 µM"}
{"smiles": "O=C(NC(=O)c1ccccc1O)c1ccc2c(c1)OCO2", "agent": "Toxoplasma gondii", "cells": "Human foreskin fibroblasts", "measure": "MIC50", "result": ">0.25 µM"}
{"smiles": "S=C(Nc1cccc(OCCCCCOc2ccc(-c3ccccc3)cc2)c1)N1CCOCC1", "agent": "Hepatitis C virus", "cells": "Ava5-EG(delta4AB)SEAP", "method": "reporter gene / fluorescence", "measure": "EC50", "result": "0.001–1 µM"}
{"smiles": "NC(=NCCc1ccc(F)cc1)c1ccc(N2CCN(c3ccccc3)CC2)cc1", "agent": "Pneumocystis carinii", "measure": "inhibition", "dose": "0.1 µg/mL", "result": "0%"}
{"smiles": "Cc1nc(-c2cc(C)c(OCCCc3ccc(C(F)F)o3)c(C)c2)no1", "agent": "Enterovirus", "cells": "HeLa", "method": "cytopathic effect", "measure": "EC50", "result": "0.033–0.659 µg/mL"}
{"smiles": "CN(NC(=O)Nc1ccc(C(F)(F)F)cc1)C(=O)Nc1cc(C(F)(F)F)cc(C(F)(F)F)c1", "agent": "Escherichia coli", "strain or isolate": "ES142", "measure": "MIC", "result": ">300 µM"}
{"smiles": "Oc1ccccc1N=Cc1ccccc1", "agent": "Cryptococcus neoformans", "strain or isolate": "C-3-1", "method": "broth dilution", "measure": "MIC", "result": "2 µg/mL"}
{"smiles": "Nc1nc2c(ncn2COC(CO)CO)c(=O)[nH]1", "agent": "Human cytomegalovirus", "strain or isolate": "C4 (D341E)", "method": "virus yield", "measure": "EC50", "result": "<1.8 µM"}
{"smiles": "CCc1ccc(C(=O)NC(=O)c2ccccc2OC)cc1", "agent": "Toxoplasma gondii", "cells": "Human foreskin fibroblasts", "measure": "MIC90", "result": ">0.25 µM"}
{"smiles": "Cn1cc(C(=O)NCc2ccc(Cl)cc2)c(=O)c2cc(CN3CCOCC3)ccc21", "agent": "Varicella zoster virus", "strain or isolate": "NE varicella isolate", "cells": "HFF", "method": "plaque count", "measure": "inhibition", "dose": "1.9 µM", "result": "90%"}
{"smiles": "NC(=NCCc1ccccc1)c1ccc(N2CCN(c3ccccc3)CC2)cc1", "agent": "Pneumocystis carinii", "measure": "inhibition", "dose": "0.1 µg/mL", "result": "0%"}
{"smiles": "NC(=S)Nc1ccc2c(c1)Cc1cc(NC(N)=S)ccc1-2", "agent": "Hepatitis C virus", "cells": "Ava5-EG(delta4AB)SEAP", "method": "reporter gene / fluorescence", "measure": "EC50", "result": "0.001–1 µM"}
{"smiles": "Nc1ncnc2c1ncn2[C@@H]1CC[C@@H](O)[C@H]1O", "agent": "Measles virus", "strain or isolate": "BIL", "cells": "CV-1", "method": "cytopathic effect", "measure": "EC50", "result": ">10 µg/mL"}
{"smiles": "CCc1ccc(NC(=O)NC(=O)c2ccccc2O)cc1", "agent": "Toxoplasma gondii", "cells": "Human foreskin fibroblasts", "measure": "MIC50", "result": ">0.25 µM"}
{"smiles": "C=CCc1ccc(O)c(OC)c1", "agent": "Candida parapsilosis", "strain or isolate": "2918", "method": "turbidity", "measure": "MIC90", "result": "485 µg/mL"}
{"smiles": "CCCN=C(N)c1ccc(N2CCN(c3ccccc3)CC2)cc1", "agent": "Pneumocystis carinii", "measure": "inhibition", "dose": "0.1 µg/mL", "result": "48%"}
{"smiles": "COC(=O)N[C@H](C(=O)N1CCC[C@H]1c1ncc(-c2ccc(-c3ccc(-c4cnc([C@@H]5CCCN5C(=O)[C@@H](NC(=O)OC)C(C)C)[nH]4)cc3)cc2)[nH]1)C(C)C", "agent": "Hepatitis C virus", "strain or isolate": "1a", "changes": "Y93C", "cells": "Lunet", "method": "luciferase", "measure": "EC50", "result": "0.00504 µM"}
{"smiles": "Nc1ncnc2c1ncn2[C@@H]1C=C[C@@H](O)[C@H]1O", "agent": "Measles virus", "strain or isolate": "Halonen", "cells": "CV-1", "method": "neutral red", "measure": "EC50", "result": "<0.1 µg/mL"}
{"smiles": "C/C=C\\[C@@H]1C[C@H](C(=O)O)N[C@H]1[C@@H](NC(C)=O)[C@](C)(CCC)OC", "agent": "Influenza B virus", "strain or isolate": "Isolate G62", "cells": "MDCK", "method": "plaque count", "measure": "EC50", "result": "<0.01 µg/mL"}
{"smiles": "C[C@@H](c1ncncc1F)[C@](O)(Cn1cncn1)c1ccc(F)cc1F", "agent": "Cryptococcus gattii", "strain or isolate": "VG IIc", "method": "broth dilution", "measure": "MIC90", "result": "0.5 µg/mL"}
{"smiles": "[N-]=[N+]=N[C@H]1C[C@@H](n2cnc3c(N)ncnc32)[C@H](O)[C@@H]1O", "agent": "Measles virus", "cells": "CV-1", "method": "cytopathic effect", "measure": "EC50", "result": "0.1 µg/mL"}
{"smiles": "O=C(NCc1ccc(Cl)cc1)c1cn2c3c(cc(CN4CCOCC4)cc3c1=O)OC(c1cccnc1)C2", "agent": "Herpes simplex virus 2", "strain or isolate": "12247 (ACV-resistant)", "cells": "HFF", "method": "plaque count", "measure": "EC50", "result": "8 µM"}
{"smiles": "O=C(NCc1ccc(Cl)cc1)c1c[nH]c2ccc(C#CCO)cc2c1=O", "agent": "Simian varicella-zoster virus", "method": "plaque count", "measure": "EC50", "result": "2.4 µM"}
{"smiles": "O=C1Nc2ccc(F)c(F)c2[C@@](C#CC2CC2)(C(F)(F)F)N1", "agent": "HIV-1", "changes": "RT-K103N V108I", "measure": "EC90", "result": "~0.02 µM"}
{"smiles": "CC1CCC(C(=O)N(c2cc(C#CC(C)(C)C)sc2C(=O)O)C2CCC(O)CC2)CC1", "agent": "Hepatitis C virus", "strain or isolate": "Con1 (gt 1b)", "changes": "I482L", "cells": "Huh7", "method": "luciferase", "measure": "fold resistance", "result": "101.2"}
{"smiles": "CCN=C(N)c1ccc(N2CCN(c3ccccc3)CC2)cc1", "agent": "Pneumocystis carinii", "measure": "inhibition", "dose": "0.1 µg/mL", "result": "61%"}
{"smiles": "CCOC(=O)c1c(C)nc(OCCCNc2ccnc3cc(Cl)ccc23)nc1-c1ccccc1", "agent": "Cryptococcus gattii", "strain or isolate": "1913 ER", "measure": "MIC99", "result": "8 µg/mL"}
{"smiles": "COc1ccc(CCCOc2cc(C)c(-c3noc(C(F)F)n3)c(C)c2)nn1", "agent": "Enterovirus", "cells": "HeLa", "method": "cytopathic effect", "measure": "EC50", "result": "0.033–0.659 µg/mL"}
{"smiles": "O=c1[nH]c(=O)n([C@H]2C[C@H](O)[C@@H](CO)O2)cc1Br", "agent": "Murine polyoma virus", "cells": "ME", "method": "hybridisation", "measure": "inhibition", "dose": "6.34 µg/mL", "result": "85%"}
{"smiles": "Cc1cc(OCCCc2ccc(CO)nn2)cc(C)c1-c1noc(C(F)F)n1", "agent": "Enterovirus", "cells": "HeLa", "method": "cytopathic effect", "measure": "EC50", "result": "0.033–0.659 µg/mL"}
{"smiles": "CCOC(=O)c1c(C)nc(NCCCCNc2ccnc3cc(Cl)ccc23)nc1-c1ccc(F)cc1", "agent": "Cryptococcus gattii", "strain or isolate": "L24/01", "measure": "MIC99", "result": "8 µg/mL"}
{"smiles": "N#Cc1cc([N+](=O)[O-])ccc1Oc1ccc(Cl)c(Cl)c1", "agent": "Coxsackie virus", "strain or isolate": "TYPE A21", "cells": "VERO", "measure": "inhibition", "dose": "1.56 µg/mL", "result": "100%"}
{"smiles": "CCc1ccc(CCCOc2c(C)cc(-c3noc(C)n3)cc2C)nn1", "agent": "Enterovirus", "cells": "HeLa", "method": "cytopathic effect", "measure": "EC50", "result": "0.033–0.659 µg/mL"}
{"smiles": "CCOC(=O)c1c(C)nc(NCCCNc2ccnc3cc(Cl)ccc23)nc1-c1ccccc1", "agent": "Cryptococcus gattii", "strain or isolate": "L24/01", "measure": "MIC99", "result": "8 µg/mL"}
{"smiles": "Cc1cc(OCCCc2ccc(Br)nn2)cc(C)c1-c1noc(C(F)F)n1", "agent": "Enterovirus", "cells": "HeLa", "method": "cytopathic effect", "measure": "EC50", "result": "0.033–0.659 µg/mL"}
{"smiles": "NC(=S)Nc1ccc2c(c1)C(=O)c1ccccc1-2", "agent": "Hepatitis C virus", "cells": "Ava5-EG(delta4AB)SEAP", "method": "reporter gene / fluorescence", "measure": "EC50", "result": "0.001–1 µM"}
{"smiles": "N=C(N)c1ccc(N2CCN(c3ccccc3)CC2)cc1", "agent": "Pneumocystis carinii", "measure": "inhibition", "dose": "10 µg/mL", "result": "80%"}
{"smiles": "Oc1ccc(O)c(C=Nc2ccccc2O)c1", "agent": "Cryptococcus neoformans", "strain or isolate": "VM-MCMMPI", "method": "broth dilution", "measure": "MIC", "result": "8 µg/mL"}
{"smiles": "O=C(NN=CC1C(c2ccccc2)=Nc2ccc(Cl)cc21)N1c2ccccc2C=Cc2ccccc21", "agent": "Aspergillus terreus", "strain or isolate": "MTCC-1782", "method": "agar diffusion", "measure": "zone", "dose": "1000 µg/mL", "result": "10 mm"}
{"smiles": "COc1ccc(OCCCCCOc2cccc(NC(N)=S)c2)c2ccccc12", "agent": "Hepatitis C virus", "cells": "Ava5-EG(delta4AB)SEAP", "method": "reporter gene / fluorescence", "measure": "EC50", "result": "0.001–1 µM"}
{"smiles": "O=C(N[C@@H](C(=O)N1CCC[C@H]1c1ncc(-c2ccc(-c3ccc(-c4cnc([C@@H]5CCCN5C(=O)[C@H](NC(=O)C5CC5)c5ccccc5)s4)cc3)cc2)s1)c1ccccc1)C1CC1", "agent": "Hepatitis C virus", "strain or isolate": "genotype 1b Con1", "cells": "Huh7.5", "method": "luciferase", "measure": "EC50", "result": "0.0000039 µM"}
{"smiles": "Cc1ccc(CCCOc2c(C)cc(C#N)cc2C)o1", "agent": "Enterovirus", "cells": "HeLa", "method": "cytopathic effect", "measure": "EC50", "result": "0.033–0.659 µg/mL"}
{"smiles": "COc1ccccc1OCCCCCOc1cccc(NC(N)=S)c1", "agent": "Hepatitis C virus", "cells": "Ava5-EG(delta4AB)SEAP", "method": "reporter gene / fluorescence", "measure": "EC50", "result": "0.001–1 µM"}
{"smiles": "O=C(NNC(=O)Nc1ccccc1C(F)(F)F)Nc1cc(C(F)(F)F)cc(C(F)(F)F)c1", "agent": "Klebsiella pneumoniae", "strain or isolate": "KL21", "measure": "MIC", "result": ">300 µM"}
{"smiles": "Cc1ccc(CCCOc2c(C)cc(-c3noc(C)n3)cc2C)nn1", "agent": "Enterovirus", "cells": "HeLa", "method": "cytopathic effect", "measure": "EC50", "result": "0.033–0.659 µg/mL"}
{"smiles": "Nc1ncnc2c1ncn2[C@@H]1C[C@H](N)[C@@H](O)[C@H]1O", "agent": "Measles virus", "strain or isolate": "CC", "cells": "CV-1", "method": "cytopathic effect", "measure": "EC50", "result": "30 µg/mL"}

Repeating the first 4 entries:

O=C(NNC(=O)Nc1cc(C(F)(F)F)cc(C(F)(F)F)c1)Nc1cc(C(F)(F)F)cc(C(F)(F)F)c1 ; agent: Escherichia coli ; strain or isolate: ES142 ; measure: MIC ; result: >300 µM
Oc1ccccc1N=Cc1ccc(O)c(O)c1O ; agent: Cryptococcus neoformans ; strain or isolate: ATCC 24067 ; measure: MIC99 ; result: 11.3 µg/mL
O=C(NNC(=O)Nc1cc(C(F)(F)F)cc(C(F)(F)F)c1)Nc1ccccc1 ; agent: Klebsiella pneumoniae ; strain or isolate: KL21 ; measure: MIC ; result: >200 µM
Cc1ccc2c(c1)C(C=NNC(=O)N1c3ccccc3C=Cc3ccccc31)C(c1ccccc1)=N2 ; agent: Aspergillus terreus ; strain or isolate: MTCC-1782 ; method: agar diffusion ; measure: zone ; dose: 750 µg/mL ; result: 8 mm